PubChem BioAssay AID624099 – ICCB-Longwood | 2012

Test: 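Host factors E2 relies on to silence an HPV18 LCR reporter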 (primary screen)
System: human C33A cervical carcinoma cells (HPV-negative) stably expressing BPV1 E2 and an HPV18 LCR luciferase reporter
Reagents: siRNA pool against human genes, 40 nM
Time to read-out: 72 h
Detection: 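Per-well luciferase luminescence, z-scored on each plate against the plate mean and SD with control wells left out, then averaged across three replicate plates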
Reading the numbers: mean z-score and z-score: higher = stronger reporter signal, weaker E2 silencing
Active means: 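Mean z ≥ 2 together with z ≥ 2 in two or more of the three replicates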
Here is one part, drawn at random, of about 21,000 deposited reagents. 497 of all reagents (2.4%) count as active. 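Higher z means weaker E2 silencing; only reporter increases were scored, and knock-downs that hurt cell survival may mask genuine repressor factors.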

{"target gene": "BIVM", "mean z-score": -0.8, "z-score, replicate A": -1.12, "z-score, replicate B": -0.69, "z-score, replicate C": -0.59, "Outcome": "inactive"}
{"target gene": "SPIB", "mean z-score": 1.41, "z-score, replicate A": 1.41, "z-score, replicate B": 1.31, "z-score, replicate C": 1.53, "Outcome": "inactive"}
{"target gene": "ZBTB14", "mean z-score": -0.08, "z-score, replicate A": 0.05, "z-score, replicate B": -0.23, "z-score, replicate C": -0.07, "Outcome": "inactive"}
{"target gene": "PCBP1", "mean z-score": -0.04, "z-score, replicate A": 0.14, "z-score, replicate B": -0.28, "z-score, replicate C": 0.01, "Outcome": "inactive"}
{"target gene": "RBMS2", "mean z-score": -1.13, "z-score, replicate A": -1.45, "z-score, replicate B": -1.02, "z-score, replicate C": -0.91, "Outcome": "inactive"}
{"target gene": "GHDC", "mean z-score": -1.18, "z-score, replicate A": -1.51, "z-score, replicate B": -1.14, "z-score, replicate C": -0.9, "Outcome": "inactive"}
{"target gene": "AIFM1", "mean z-score": -0.25, "z-score, replicate A": -0.51, "z-score, replicate B": -0.22, "z-score, replicate C": -0.03, "Outcome": "inactive"}
{"target gene": "GCOM1", "mean z-score": -2.34, "z-score, replicate A": -2.32, "z-score, replicate B": -2.19, "z-score, replicate C": -2.51, "Outcome": "inactive"}
{"target gene": "TRIP4", "mean z-score": 0.11, "z-score, replicate A": 0.07, "z-score, replicate B": 0.09, "z-score, replicate C": 0.18, "Outcome": "inactive"}
{"target gene": "PLD2", "mean z-score": -0.27, "z-score, replicate A": -0.29, "z-score, replicate B": -0.27, "z-score, replicate C": -0.24, "Outcome": "inactive"}
{"target gene": "CEP68", "mean z-score": 0.25, "z-score, replicate A": 0.2, "z-score, replicate B": 0.16, "z-score, replicate C": 0.38, "Outcome": "inactive"}
{"target gene": "UBE2M", "mean z-score": -0.66, "z-score, replicate A": -0.16, "z-score, replicate B": -0.66, "z-score, replicate C": -1.16, "Outcome": "inactive"}
{"target gene": "UTF1", "mean z-score": 1.9, "z-score, replicate A": 1.65, "z-score, replicate B": 1.42, "z-score, replicate C": 2.63, "Outcome": "inactive"}
{"target gene": "LCE3B", "mean z-score": 3.72, "z-score, replicate A": 3.94, "z-score, replicate B": 3.31, "z-score, replicate C": 3.91, "Outcome": "active"}

2 entries already listed, arranged by “z-score, replicate C”, highest first:
{"target gene": "LCE3B", "mean z-score": 3.72, "z-score, replicate A": 3.94, "z-score, replicate B": 3.31, "z-score, replicate C": 3.91, "Outcome": "active"}
{"target gene": "UTF1", "mean z-score": 1.9, "z-score, replicate A": 1.65, "z-score, replicate B": 1.42, "z-score, replicate C": 2.63, "Outcome": "inactive"}
